Reference: IntAct's records for PubMed 24418540

Molecular target: cul5_human CUL5 (UniProt Q93034)

Substance	effect of a mutation on the interaction
Virion infectivity factor (Human immunodeficiency virus type 1 group M subtype B (isolate HXB2) (HIV-1)), P69723 E88A;W89A	disrupting interaction strength
Virion infectivity factor (Human immunodeficiency virus type 1 group M subtype B (isolate HXB2) (HIV-1)), P69723 W21A	disrupting interaction strength
Virion infectivity factor (Human immunodeficiency virus type 1 group M subtype B (isolate HXB2) (HIV-1)), P69723 W38A	disrupting interaction strength
Virion infectivity factor (Human immunodeficiency virus type 1 group M subtype B (isolate HXB2) (HIV-1)), P69723 W89A	disrupting interaction strength
